## Zika virus NS2B-NS3: effect of single substitutions on growth in cell culture

Source: Ni et al. 2025 (doi:10.1038/s41467-025-63602-z), supplementary data.

Protein: NS2B and the protease part of NS3 of Zika virus strain MR766. Positions count along the chain below; NS2B spans 2-131 and NS3 starts at 132.
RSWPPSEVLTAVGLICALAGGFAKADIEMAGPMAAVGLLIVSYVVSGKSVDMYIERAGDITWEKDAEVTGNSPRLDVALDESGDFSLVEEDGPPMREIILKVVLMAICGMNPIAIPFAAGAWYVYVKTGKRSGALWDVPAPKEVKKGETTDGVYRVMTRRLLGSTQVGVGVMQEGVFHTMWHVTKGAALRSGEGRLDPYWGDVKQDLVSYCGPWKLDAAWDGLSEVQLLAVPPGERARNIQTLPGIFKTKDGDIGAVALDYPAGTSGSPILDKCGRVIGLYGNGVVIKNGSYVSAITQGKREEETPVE

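Pools of virus carrying all single amino acid changes were selected for growth in Huh-7.5 cells. Deep sequencing gave the change in frequency of each mutant relative to wild type, averaged over three replicate libraries (two for positions 207-308). The aim was to find sites where inhibitor-binding pockets cannot change.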

Scale: log2 effect, wild type = 0; the lower, the more harmful to the virus. Each entry names the wild-type residue, its position and the residue put in its place. This list holds changes to threonine only. Six mutants with high scores were retested singly and none clearly outgrew wild type, so positive values are not proof of better growth. Position 1 still belongs to NS2A. In the paper, -1 or higher counts as tolerated. The region was split into three libraries (1-103, 104-206, 207-308).

| change | log2 growth effect |
|---|---|
| F117T | -6.82 |
| A118T | -3.76 |
| A119T | -1.32 |
| G120T | -0.75 |
| A121T | -0.60 |
| W122T | -6.58 |
| Y123T | -2.94 |
| V124T | -1.22 |
| Y125T | -6.47 |
| V126T | -0.53 |
| K127T | -5.96 |
| G129T | -6.88 |
| K130T | -6.99 |
| R131T | -7.45 |
| S132T | -7.03 |
| G133T | -6.68 |
| A134T | -6.14 |
| L135T | -7.71 |
| W136T | -7.40 |
| D137T | -7.53 |
| V138T | -4.65 |
| P139T | -6.95 |
| A140T | -6.32 |
| P141T | -2.86 |
| K142T | -1.92 |
| E143T | -0.39 |
| V144T | -1.36 |
| K145T | -1.06 |
| K146T | -1.93 |
| G147T | -3.04 |
| E148T | -0.80 |
| D151T | -2.86 |
| G152T | -6.67 |
| V153T | -6.03 |
| Y154T | -6.60 |
| R155T | -6.99 |
| V156T | -6.74 |
| M157T | -5.78 |
| R159T | -3.81 |
| R160T | -2.52 |
| L161T | -5.72 |
| L162T | -5.14 |
| G163T | -5.15 |
| S164T | -0.30 |
| Q166T | -6.46 |
| V167T | -2.69 |
| G168T | -5.93 |
| V169T | -6.76 |
| G170T | -6.71 |
| V171T | -6.31 |
| M172T | -6.50 |
| Q173T | -2.77 |
| E174T | -5.62 |
| G175T | -5.79 |
| V176T | -1.79 |
| F177T | -5.78 |
| H178T | -6.29 |
| M180T | -5.62 |
| W181T | -5.60 |
| H182T | -5.88 |
| V183T | -5.67 |
| K185T | -4.98 |
| G186T | -5.63 |
| A187T | -4.56 |
| A188T | -4.64 |
| L189T | -5.77 |
| R190T | -2.22 |
| S191T | -2.76 |
| G192T | -6.23 |
| E193T | -0.46 |
| G194T | -6.85 |
| R195T | -7.03 |
| L196T | -6.87 |
| D197T | -1.83 |
| P198T | -2.39 |
| Y199T | -1.92 |
| W200T | -7.43 |
| G201T | -6.85 |
| D202T | -4.27 |
| V203T | -6.99 |
| K204T | -8.02 |
| Q205T | -2.95 |
| D206T | -7.30 |
| L207T | -5.65 |
| V208T | -4.06 |
| S209T | -0.04 |
| Y210T | -7.80 |
| C211T | -2.64 |
| G212T | -7.87 |
| P213T | -2.38 |
| W214T | -8.53 |
| K215T | -4.90 |
| L216T | -7.25 |
| D217T | -5.88 |
| A218T | -1.71 |
| A219T | 0.89 |
| W220T | -7.19 |
| D221T | -6.49 |
| G222T | -1.90 |
| L223T | -0.36 |
| S224T | -1.04 |
| E225T | -5.94 |
| V226T | -6.26 |
| Q227T | -7.26 |
| L228T | -5.28 |
| L229T | -2.83 |
| A230T | -3.15 |
| V231T | -4.48 |
| P232T | -0.44 |

13 of these entries, quoted again:

A118T read -3.76.
V183T read -5.67.
M180T read -5.62.
L189T read -5.77.
S224T read -1.04.
G194T read -6.85.
L135T read -7.71.
A140T read -6.32.
K130T read -6.99.
V231T read -4.48.
E174T read -5.62.
D202T read -4.27.
K185T read -4.98.